A mixed list of measured activities; the numbers were collected in NIAID ChemDB.

Shared fields: whole-cell or culture tests; species: Mycobacterium tuberculosis

A number after MIC or MFC names an inhibition level or a share of isolates. Percent inhibition refers to the dose given; in toxicity tests it is the harm to the cells. An empty or dashed field is not shown. ECn is the concentration giving n% inhibition of infection, replication or growth. a–b is a range or a potency band. MIC bound: limit read from a one-dose screen. Rows are shuffled and stem from different studies.

SMILES	dose	changes	read by	read-out	strain	value
Cc1ccc(NCCN)c2c(=O)c3cc(O)ccc3sc12			BACTEC	MIC bound	H37Rv	>12.5 µg/mL
CCC(C)[C@H](NC(=O)CCC(C)[C@H]1CCC2C3C(C[C@H](O)[C@@]21C)[C@@]1(C)CC[C@@H](O)CC1C[C@H]3O)C(=O)OCc1cn(CC2OC(n3cnc4c(N)ncnc43)[C@@H]3OC(C)(C)O[C@H]23)nn1			resazurin	MIC	H37Rv	7.01 µM
CC(C)CCOc1ccc(NC(=S)NC2OC(CO)[C@H](O)[C@H]2O)cc1			resazurin	MIC	H37Rv	6.25–12.5 µg/mL
CCOc1ccc(N=Cc2c3c(O)c4c(O)c(C)c5c(c4c2O)C(=O)[C@@](C)(O/C=C/[C@H](OC)[C@@H](C)[C@@H](OC(C)=O)[C@H](C)[C@H](O)[C@H](C)[C@@H](O)[C@@H](C)/C=C/C=C(/C)C(=O)N3)O5)cc1				MIC	H37Rv	>50 µg/mL
CN(C)c1ccc2nc3ccc(N)cc3[n+](-c3ccccc3)c2c1.[Cl-]			BACTEC	MIC bound	H37Rv	≤12.5 µg/mL
CC1COc2c(N3CCN(C)CC3)c(F)cc3c(=O)c(C(=O)O)cn1c23				MIC90	18 strains	1 µg/mL
CC(CCC(=O)OCc1cn(CC2OC(n3ccc(=O)[nH]c3=O)[C@@H]3OC(C)(C)O[C@H]23)nn1)[C@H]1CCC2C3C(C[C@H](O)[C@@]21C)[C@@]1(C)CC[C@@H](O)CC1C[C@H]3O			resazurin	MIC	H37Rv	8.27 µM
CCN(CC)c1c([N+](=O)[O-])c(=O)nc2ccccn12	6.25 µg/mL		resazurin	inhibition	H37Rv	0%
NNC(=O)c1ccncc1			visual reading	MIC	H37Rv	<0.3 µM
CCC(=O)Oc1ccc2c(c1)[nH]c1c(C)nccc12				EC50	H37Rv	>6.25 µg/mL
CCC(=O)Nc1ccc2cc(-c3cc(C(=O)O)ccc3CN(C)C3CCCCC3)c(=O)oc2c1			resazurin	MIC	H37Rv	8 µg/mL
CN(C)c1cc2nc(C3CCCCC3)[nH]c2cc1NC(=O)c1ccc(OC(F)(F)F)c(F)c1F			resazurin	MIC	H37Rv	0.39 µg/mL
Cc1ccc(/C=C(\C(N)=S)c2nc3ncccc3n2C)c(C)c1				MIC	193	31.2 µg/mL
O=C1C2OC2C(O)(CCN(Cc2ccc3c(c2)OCO3)C(=O)C(F)(F)F)C2OC12			resazurin	MIC bound	H37Rv	>6.25 µg/mL
C[C@H](O)[C@H]1C(=O)N2C(C(=O)O)=C(S[C@@H]3CN[C@H](C(=O)N(C)C)C3)[C@H](C)[C@H]12			turbidity	MIC	H37Rv	6.3 µg/mL
Cc1[nH]ccc2c1[nH]c1cc(=O)ccc12	6.25 µg/mL			inhibition	H37Rv	29%
CC(CCC(=O)OCc1cn(CC2OC(n3cnc4c(N)ncnc43)[C@@H]3OC(C)(C)O[C@H]23)nn1)[C@H]1CCC2C3CCC4C[C@H](O)CC[C@]4(C)C3C[C@H](O)[C@@]21C			resazurin	MIC	H37Rv	4.09 µM
Cc1ncc([N+](=O)[O-])n1CCO			turbidity	MIC	H37Rv	>200 µg/mL
CC(CCC(=O)N[C@@H](C)C(=O)OCc1cn(CC2OC(n3ccc(=O)[nH]c3=O)[C@@H]3OC(C)(C)O[C@H]23)nn1)[C@H]1CCC2C3C(C[C@H](O)[C@@]21C)[C@@]1(C)CC[C@@H](O)CC1C[C@H]3O			resazurin	MIC	H37Rv	15.12 µM
CC[C@@H]1CCN[C@H](C(=O)NC(C2O[C@H](SC)[C@H](O)[C@@H](O)[C@H]2O)[C@H](C)Cl)C1			turbidity	MIC	H37Rv	>200 µg/mL
COC(=O)C1C(O)C(C)C(O)C(C)(O)C=C(C)C2=C3C(=C(C)C(=O)c4c(O)c(c(C)c(OC(C)=O)c43)NC(=O)/C(C)=C/C=C\C(C)C3OC(C)(C)OC1C3C)OCO2			BACTEC	MIC	H37Rv	≥12.5 µg/mL
CC(C(N)=S)c1nc2ncccc2[nH]1				MIC	109	16 µg/mL
CC1(C)S[C@@H]2[C@H](NC(=O)[C@H](N)c3ccc(O)cc3)C(=O)N2[C@H]1C(=O)O				MIC90	24 strains (drug-susceptible)	>256 µg/mL
Cn1c(=O)c2[nH]c(C(O)C(O)C(O)C(O)CO)nc2n(C)c1=O			BACTEC	MIC bound	H37Rv	>6.25 µg/mL
O=[N+]([O-])c1cn2c(n1)OC[C@@H](OCc1ccc(OC(F)(F)F)cc1)C2				MIC	H37Rv-5A2 (PA-824-resistant)	>100 µM
CC(C)CCOc1ccc(NC(=S)NC2OC(CO)[C@@H](O)[C@@H]2O)cc1			resazurin	MIC	H37Rv	1.56–3.125 µg/mL
CC1(C)S[C@@H]2[C@H](NC(=O)C(C(=O)O)c3ccccc3)C(=O)N2[C@H]1C(=O)O				MIC50	24 strains (drug-susceptible)	>256 µg/mL
N#Cc1cc2[nH]c3ccc(OC(F)(F)F)cc3c2oc1=O			resazurin	MIC99	H37Rv	3.6 µg/mL
CC1(C)CO/C(=C\C(=O)c2ccccc2)N1C(=O)c1ccccc1	12.5 µg/mL		BACTEC	inhibition	H37Rv	26%
Cn1cccc2nc(C/C(N)=N/O)nc1-2				MIC	109	125 µg/mL
CC(CCC(=O)OCc1cn(CC2OC(n3ccc(=O)[nH]c3=O)[C@@H]3OC(C)(C)O[C@H]23)nn1)[C@H]1CCC2C3CCC4C[C@H](O)CC[C@]4(C)C3C[C@H](O)[C@@]21C			resazurin	MIC	H37Rv	8.45 µM
O=S1(=O)OC(c2ccc(O)cc2)(c2ccc(O)cc2)c2ccccc21	12.5 µg/mL		BACTEC	inhibition	H37Rv	14%
CC(CCC(=O)N[C@@H](Cc1ccccc1)C(=O)OCc1cn(CC2OC(n3ccc(=O)[nH]c3=O)[C@@H]3OC(C)(C)O[C@H]23)nn1)[C@H]1CCC2C3CCC4C[C@H](O)CC[C@]4(C)C3C[C@H](O)[C@@]21C			resazurin	MIC	H37Rv	14.09 µM
C=CC(O)(C1CC1)C1CC1				MIC bound	H37Rv	>6.25 µg/mL
CN[C@H](CC(C)C)C(=O)N[C@H]1C(=O)N[C@@H](CC(N)=O)C(=O)N[C@H]2C(=O)N[C@H]3C(=O)N[C@H](C(=O)N[C@H](C(=O)O)c4cc(O)cc(O)c4-c4cc3ccc4O)[C@H](O)c3ccc(c(Cl)c3)Oc3cc2cc(c3O[C@@H]2O[C@H](CO)[C@@H](O)[C@H](O)[C@H]2O[C@H]2C[C@](C)(N)[C@H](O)[C@H](C)O2)Oc2ccc(cc2Cl)[C@H]1O			turbidity	MIC	H37Rv	50 µg/mL
CCCCC(=O)N/N=C/c1c(O)cc(OC)cc1OC			BACTEC	MIC	H37Rv	≥12.5 µg/mL
CO[C@H]1/C=C/O[C@@]2(C)Oc3c(C)c(O)c4c(O)c(c(/C=N/N5CCN(c6cccc7ccccc67)CC5)c(O)c4c3C2=O)NC(=O)/C(C)=C\C=C\[C@H](C)[C@H](O)[C@@H](C)[C@@H](O)[C@@H](C)[C@H](OC(C)=O)[C@@H]1C				MIC	H37Rv	0.07–3.12 µg/mL
COc1cc(O)c2c(c1)C(=O)c1cc(C)cc(O)c1C2=O			BACTEC	MIC bound	H37Rv	>12.5 µg/mL
COc1ccc(Cc2cnc(N)nc2N)cc1Br				MIC	Var. hominis	6 µg/mL
COc1ccc(CN2CCNCC2)c(OC)c1OC			visual reading	MIC	H37Rv	1000 µM
NNC(=O)c1cc(-c2ccccc2)nc2ccccc12			BACTEC	MIC	H37Rv	≥12.5 µg/mL
CCN(CC)CCNC(=O)c1ccc([N+](=O)[O-])cc1				MIC	H37Rv	50 µg/mL
CNC(=[SH+])[N-]/N=C(\C)c1ccccn1.[Cl][Cu]			BACTEC	MIC bound	H37Rv	≤12.5 µg/mL
C[C@H]1c2cccc(O)c2C(O)=C2C(=O)[C@]3(O)C(O)=C(C(N)=O)C(=O)[C@@H](N(C)C)[C@@H]3[C@@H](O)[C@@H]21			turbidity	MIC	H37Rv	6.3–50 µg/mL
CCOC(=O)c1ccc(N=C2C(=S)N(c3ccc(C(=O)OCC)cc3)C(=N)N2/N=C/c2ccccc2)cc1	12.5 µg/mL		BACTEC	inhibition	H37Rv	85%
Cc1ccc2[nH]c3cc(C#N)c(=O)oc3c2c1		Streptomycin-starved	resazurin	MIC99	18b	0.4 µg/mL
CCN(CC)CCNC(=O)c1cc([N+](=O)[O-])cc([N+](=O)[O-])c1				MIC	H37Rv	5 µg/mL
O=C/C=C/c1ccccc1			absorbance	MIC	H37Ra	256 µg/mL
CCOC(=O)c1c(-c2ccc([N+](=O)[O-])o2)noc1N				MIC		30 µg/mL
CCN(CCO)CCNc1ccc(C)c2sc3cc(OC)ccc3c(=O)c12	12.5 µg/mL		BACTEC	inhibition	H37Rv	100%
COc1nc2ccc(Br)cc2cc1[C@@H](c1ccccc1)[C@@](O)(CCN(C)C)c1cccc2ccccc12			resazurin	MIC90	clinical isolate MAL020165	0.03125 µg/mL
CC(C(=O)NN)c1nc2ncccc2[nH]1				MIC	H37Rv	500 µg/mL
C=CCC1(C(C)Cc2ccc(OC)c(OC)c2)CC(OC)C=CC1=O	12.5 µg/mL		BACTEC	inhibition	H37Rv	50%
CCCCCC(CC(=O)N1N=CCCC1C(=O)N[C@H]1COC(=O)C2C[C@@H](C)CNN2C(=O)[C@H](C)NC(=O)[C@@H](CC(C)C)NC1=O)C(=O)O				MBC	H37Rv	25 µg/mL
COc1cc(Cc2cnc(N)nc2N)cc(OC)c1OC				MIC	Var. hominis	250 µg/mL
CCN(CC)CCNC(=O)c1ccc([N+](=O)[O-])cc1Cl				MIC	H37Rv	50 µg/mL
Cc1nccc2c1[nH]c1cc(OS(C)(=O)=O)ccc12	6.25 µg/mL			inhibition	H37Rv	24%
CC(CCC(=O)N[C@@H](Cc1ccccc1)C(=O)OCc1cn(CC2OC(n3cnc4c(N)ncnc43)[C@@H]3OC(C)(C)O[C@H]23)nn1)[C@H]1CCC2C3CCC4C[C@H](O)CC[C@]4(C)C3C[C@H](O)[C@@]21C			resazurin	MIC	H37Rv	6.86 µM
CCOC(=O)[C@H](CC(C)C)NC(=O)c1c2nc3c(C(=O)N[C@@H](CC(C)C)C(=O)OCC)cc(NC(C)=O)c(C)c3oc-2c(C)c(=O)c1N	12.5 µg/mL		BACTEC	inhibition	H37Rv	-12%
NC(=O)c1c(-c2ccc([N+](=O)[O-])o2)noc1N				MIC		10 µg/mL
CO[C@H]1/C=C/O[C@@]2(C)Oc3c(C)c(O)c4c(O)c(c(/C=N/N5CCN(C)CC5)c(O)c4c3C2=O)NC(=O)/C(C)=C\C=C\[C@H](C)[C@H](O)[C@@H](C)[C@@H](O)[C@@H](C)[C@H](OC(C)=O)[C@@H]1C		513Lys		MIC99		>640 µg/mL
Nc1cc2nc3ccccc3oc-2cc1=O	12.5 µg/mL		BACTEC	inhibition	H37Rv	100%
CCCCCC1(C)Cn2cc([N+](=O)[O-])nc2O1				MIC	H37Rv-5A2 (PA-824-resistant)	>100 µM
CCOCNc1onc(-c2ccc([N+](=O)[O-])o2)c1C#N				MIC		3 µg/mL
CC(CCC(=O)N[C@@H](C)C(=O)OCc1cn(CC2OC(n3cnc4c(N)ncnc43)[C@@H]3OC(C)(C)O[C@H]23)nn1)[C@H]1CCC2C3C(C[C@H](O)[C@@]21C)[C@@]1(C)CC[C@@H](O)CC1C[C@H]3O			resazurin	MIC	H37Rv	7.35 µM
NC(N)=NS(=O)(=O)c1ccc(N=Nc2c(O)n(-c3ccccc3)n(-c3ccccc3)c2=O)cc1			BACTEC	MIC bound	H37Rv	>12.8 µg/mL
CCC(C)[C@H](NC(=O)CCC(C)[C@H]1CCC2C3CCC4C[C@H](O)CC[C@]4(C)C3C[C@H](O)[C@@]21C)C(=O)OCc1cn(CC2OC(n3ccc(=O)[nH]c3=O)[C@@H]3OC(C)(C)O[C@H]23)nn1			resazurin	MIC	H37Rv	14.65 µM
Cc1nccc2c1[nH]c1cc(OC(=O)C(C)C)ccc12				EC50	H37Rv	>6.25 µg/mL
CC(CN(C)C)C(/C=C/c1ccc(Cl)cc1)=N/NC(=O)c1ccccc1.Cl			BACTEC	MIC bound	H37Rv	>12.5 µg/mL
COc1c(N2CCNC(C)C2)c(F)cc2c(=O)c(C(=O)O)cn(C3CC3)c12			turbidity	MIC	H37Rv	0.2 µg/mL